Measured values from several laboratories, pooled; numbers as filed in NIAID ChemDB.

Common to all: whole-cell or culture tests; agent: Hepatitis C virus; cell line: Huh7; read-out: EC50

ECn: concentration that inhibits the pathogen or its effect by n%.

compound | strain | changes | method | result
Cc1cc(F)ccc1N=C1SC(c2ccc(NC(=O)[C@H]3CCCN3C(=O)OCc3ccccc3)cc2)C(=O)N1Cc1ccco1 |  |  | replicon | 1–5 µM
CC(C)(CN1CCCC1)NC(=O)c1ccc(-c2ccc3nc(N)nc(O[C@H]4CCOC4)c3n2)cc1 |  |  | replicon | <0.3 µM
O=C(Nc1ccc(C2SC(=Nc3cccc(F)c3)N(Cc3ccco3)C2=O)cc1)[C@H]1CCCN1C(=O)Cc1ccccc1 |  |  | replicon | <0.1 µM
COC(=O)C1=Cc2cc(Cl)ccc2-c2c(C3CCCCC3)c3ccc(C(=O)NS(=O)(=O)N(C)C)cc3n2C1 |  |  | replicon | 0.01–1 µM
CCCOc1cc2c(C(=O)NC)c(-c3ccc(F)cc3)oc2cc1N(CS(C)(=O)=O)OC |  |  | replicon | <1 µM
O=C(O)c1ccc2c(C3CCCCC3)c3c4ccccc4[nH]c(=O)n3c2c1 |  |  | replicon | >10 µM
O=C(Cc1cccc(Cl)c1)N/N=C/c1ccc(F)cc1OS(=O)(=O)c1ccc(C(F)(F)F)cc1 |  |  | replicon | 5–50 µM
CNC(=O)c1c(-c2ccc(F)cc2)oc2cc(CNS(C)(=O)=O)c(OC(C)C)cc12 |  |  | replicon | <10 µM
Nc1nc(N2CCOCC2)c2nc(-c3ccc(C(=O)NC4CC4)cc3)ccc2n1 |  |  | replicon | <0.3 µM
CNC(=O)c1c(-c2ccc(F)cc2)oc2cc(-c3nc(C)nn3C)c(OC)cc12 |  |  | replicon | <10 µM
CCOc1nc(N)nc2ccc(-c3ccc(NS(C)(=O)=O)cc3)nc12 |  |  | replicon | >1 µM
O=C(Cc1cccc(Cl)c1)N/N=C/c1cccnc1OS(=O)(=O)c1ccc(C(F)(F)F)cc1 |  |  | replicon | >50 µM
CNC(=O)c1c(-c2ccc(F)cc2)oc2cc(N(C)S(C)(=O)=O)c(OCC(=O)Nc3nccs3)cc12 |  |  | replicon | <1 µM
CC(C)N1CCC(NC(=O)c2ccc(-c3ccc4nc(N)nc(O[C@H]5CCOC5)c4n3)cc2)CC1 |  |  | replicon | >1 µM
CNC(=O)c1c(-c2ccc(F)cc2)oc2cc(C(C)(O)CN)c(OC(C)C)cc12 |  |  | replicon | <30 µM
O=C(Nc1ccc(C2SC(=Nc3cccc(F)c3)N(Cc3ccco3)C2=O)cc1)[C@H]1CCCN1C(=O)Cc1ccncc1 |  |  | replicon | 0.1–1 µM
COc1c(-c2ccc3cc(NS(C)(=O)=O)ccc3c2)cc(-n2ccc(=O)[nH]c2=O)cc1C(C)(C)C | genotype 1b Con1 | A553V | luciferase | 0.071 µM
CC(C)C(=O)Nc1ccc(-c2ccc3nc(N)nc(NCCS(C)(=O)=O)c3n2)cc1 |  |  | replicon | <0.3 µM
CN(Cc1ccc(/C=C\C(=O)O)cc1)S(=O)(=O)NC(=O)c1ccc2c(C3CCCCC3)c3n(c2c1)CC(=O)Nc1ccccc1-3 |  |  | replicon | 1–10 µM
CNC(=O)c1c(-c2ccc(F)cc2)oc2cc(CN(C)C)c(OC(C)C)cc12 |  |  | replicon | <30 µM
CCOC(=O)/C=C/c1ccc(NC(=O)C2(NC(=O)c3ccc4c(C5CCCCC5)c5n(c4c3)CCCc3ncccc3-5)CCCC2)cc1 |  |  | replicon | 0.01–1 µM
CNC(=O)c1c(-c2ccc(F)cc2)oc2cc(N)c(OCc3ccccc3)cc12 |  |  | replicon | <10 µM
O=C(Cc1cc(C(F)(F)F)ccc1C(F)(F)F)N/N=C/c1ccccc1OS(=O)(=O)c1ccc(C(F)(F)F)cc1 |  |  | replicon | <5 µM
CS(=O)(=O)NC(=O)c1ccc2c(C3CCCCC3)c3n(c2c1)CC=Cc1ncccc1-3 |  |  | replicon | >10 µM
COc1cccc(CC(=O)N/N=C/c2ccc(C)cc2OS(=O)(=O)c2ccc(C(F)(F)F)cc2)c1 |  |  | replicon | <5 µM
COc1ccc2c(c1)CC(C(=O)N1CCOCC1)Cn1c-2c(C2CCCCC2)c2ccc(C(=O)O)cc21 |  |  | replicon | 0.01–1 µM
CCc1cccc(N=C2SC(c3ccc(NC(=O)[C@H]4CCCN4C(=O)OCc4ccccc4)cc3)C(=O)N2Cc2ccco2)c1 |  |  | replicon | 1–5 µM
CNC(=O)c1c(-c2ccc(F)cc2)oc2cc(N3CCOCC3)c(OCc3nnc(-c4ccc(C)cc4)o3)cc12 |  |  | replicon | <10 µM
COc1cccc(CC(=O)N/N=C/c2ccccc2OS(=O)(=O)c2ccc(OC)c(OC)c2)c1 |  |  | replicon | <5 µM
CNC(=O)c1c(-c2ccc(F)cc2)oc2cc(-c3cc(C)no3)c(OC(C)C)cc12 |  |  | replicon | <30 µM
O=C(O)/C=C/c1ccc(NC(=O)C2(NC(=O)c3ccc4c(C5CCCCC5)c5n(c4c3)CCCn3cccc3-5)CCCC2)cc1 |  |  | replicon | 1–10 µM

4 of the rows above, restated:

| compound | strain | changes | method | result |
|---|---|---|---|---|
| CNC(=O)c1c(-c2ccc(F)cc2)oc2cc(C(C)(O)CN)c(OC(C)C)cc12 |  |  | replicon | <30 µM |
| O=C(Cc1cccc(Cl)c1)N/N=C/c1ccc(F)cc1OS(=O)(=O)c1ccc(C(F)(F)F)cc1 |  |  | replicon | 5–50 µM |
| CCc1cccc(N=C2SC(c3ccc(NC(=O)[C@H]4CCCN4C(=O)OCc4ccccc4)cc3)C(=O)N2Cc2ccco2)c1 |  |  | replicon | 1–5 µM |
| CC(C)(CN1CCCC1)NC(=O)c1ccc(-c2ccc3nc(N)nc(O[C@H]4CCOC4)c3n2)cc1 |  |  | replicon | <0.3 µM |

Conditions beyond the fields shown may differ between rows. An empty or dashed field is not shown. a–b is a range or a potency band.